{"source": "paper PMC4728550", "biological_target": "Recombinant protective antigen (rPA) of anthrax toxin (Bacillus anthracis)", "assay": "SPR"}
{"substance": "sCMG2, recombinant soluble von Willebrand factor type A (vWA) domain of capillary morphogenesis prot (from UniProt P58335 39-218) (domain or fragment)", "values": [{"measurement": "Kd", "value": 1.67, "unit": "nM"}, {"measurement": "koff", "value": 0.0138, "unit": "s⁻¹"}, {"measurement": "kon", "value": "7.98e+06", "unit": "M⁻¹ s⁻¹"}]}
